This note sets out measurements from patent US9517230B2, “Small molecule RNase inhibitors and methods of use” (UNIVERSITY OF ROCHESTER, priority 2011, dated 2016).

Amino acid sequences for entries named in this document (tags omitted).
UniProt P0A0H5, whole entry: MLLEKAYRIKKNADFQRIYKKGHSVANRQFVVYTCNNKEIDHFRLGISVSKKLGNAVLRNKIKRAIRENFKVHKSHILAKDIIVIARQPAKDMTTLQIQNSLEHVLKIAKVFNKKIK

One assay has as its system MRSA. Kind of assay: Antimicrobial susceptibility testing, broth microdilution (CLSI). The format is cell-based, Staphylococcus aureus. Conditions: 18 hr at 37° C. The text has this: In some examples, compounds can be further assayed using the Mueller Hinton (MH) broth antibacterial assay as specified by the Clinical and Laboratory Standards Institute MIC broth microdilution protocol (see Methods for Dilution Antimicrobial Susceptibility Tests for Bacteria That Grow Aerobically; Approved Standard, In The Clinical and Laboratory Standards Institute (CLSI, formerly NCCLS), 7th ed., January 2006, 26 (2), M7-A7; see also Performance Standards for Antimicrobial Susceptibility Testing; Eighteenth Informational Supplement, In The Clinical and Laboratory Standards Institute (CLSI, formerly NCCLS), January 2008, 28 (1), M100-S18).
In vitro activities of RNPA-2000 (labeled in FIG. 4 as ST003531), RNPA-3000 (labeled in FIG. 4 as ST0006630), ST040225, and ST025201 against bacteria were determined by the broth microdilution method according to the Clinical and Laboratory Standards Institute (CLSI) guidelines using cation adjusted Mueller-Hinton broth or MH broth supplemented with 5% lysed horse blood (for testing Streptococcus spp.). Microtiter plates containing serial dilutions of the compounds 1000 (0, 4, 8, 16, 32, 64, and 128 μg/ml) were inoculated with 10^5 colony forming units (CFU)/ml and incubated for 18 hr at 37° C.

The next assay has as its target S. aureus RnpA (Staphylococcus aureus, UniProt P0A0H5). In words: RnpA-mediated RNA (spa mRNA) degradation inhibitory titration assay. The format is biochemical. To be noted: read-out: apparent IC50; 1 pmol spa mRNA, 20 pmol RnpA, one hour at 37° C., agarose gel. The method, then: Specifically, members of the ActiProbe-25K and Natural Product libraries (29,940 compounds total; TimTec Inc.; Newark, Del.) were screened for small molecule inhibitors of S. aureus RnpA mediated total bacterial RNA degradation. All reactions (50 μl) were performed in 96-well format and contained 20 pmol RnpA, 200 ng S. aureus total RNA, and ˜5 μM of each compound in 1× reaction buffer (2 mM NaCl, 2 mM MgCl2, 50 mM Tris-HCl, pH 6.0). Mixtures were incubated at 37° C. for 20 min at which time Quant-iT RiboGreen® (100 μl; Invitrogen) was added to quantify the amount of RNA substrate remaining. Percent enzyme inhibition was calculated as remaining substrate/starting substrate*100. For inhibitory titration assays, 1 pmol of spa mRNA was incubated with 20 pmol RnpA alone (positive control) or in the presence of one of four compounds for one hour at 37° C. The compounds included RNPA-2000 (labeled in FIG. 4 as ST003531) in increasing amounts (0, 2.5, 5, 10, 12.5, 15, 17.5, and 20 μM); RNPA-3000 (labeled in FIG. 4 as ST0006630) in increasing amounts (0, 2.5, 5, 10, 12.5, 15, 20, and 25 μM); ST040225 in increasing amounts (0, 25, 50, 100, 200, 400, 800, and 1000 μM); and ST025201 (0, 1, 2.5, 5, 10, 25, and 50 μM). Following this, 20 μl of each reaction mixture were subjected to electrophoresis in a 1.2% formaldehyde-containing agarose gel and visualized by ethidium bromide staining.

Take `O=C1NC(=S)N(c2ccc(Cl)cc2)C(=O)C1=Cc1ccc(-c2ccccc2C(=O)O)o1`: the “antimicrobial activity against MRSA (in words)” value in the assay on MRSA is given as “exhibits antimicrobial effects”. Further, on S. aureus RnpA, the IC50 (as a rule, the concentration needed to halve the response being measured) was 5 to 10 µM.
